Genome-wide point mutation profile of HIV-1: RT

Protein: RT of HIV-1 NL4-3, numbered from its first residue.
Effects on overlapping genes or RNA elements are not listed.

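Seven fragments of pNL4-3 were mutated by error-prone PCR, and each virus pool was passaged in CEM T cells. The RC index is the frequency of a change after passage round 2 divided by its frequency in the plasmid library.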

A higher RC index is a better tolerated change; approximate classes are lethal up to 0.1, attenuated to 0.2, tolerated above. Each entry names the wild-type residue, its position and the residue put in its place. The authors read an index above 1 as above wild type (1.9% of all changes in the genome). Clones carried about five changes per kilobase, which can drag down the index of neutral changes. Base changes are numbered along pNL4-3.

substitution,base,RC index
P1H,C2551A,0.124
P1R,C2551G,0.0462
I2V,A2553G,0.0471
I2T,T2554C,0.0549
I2S,T2554G,0.141
S3C,A2556T,0.0768
S3I,G2557T,0.0612
P4T,C2559A,0.315
P4L,C2560T,0.0596
I5N,T2563A,0.0409
I5T,T2563C,0.0690
E6K,G2565A,0.527
E6V,A2566T,0.0495
E6D,G2567T,0.205
T7N,C2569A,0.0645
T7I,C2569T,0.0621
V8I,G2571A,0.122
V8L,G2571C,0.107
P9T,C2574A,0.490
P9A,C2574G,0.0891
P9Q,C2575A,0.167
P9L,C2575T,0.0442
V10L,G2577T,0.111
V10E,T2578A,0.0385
K11E,A2580G,0.0950
K11I,A2581T,0.0524
L12F,A2585T,0.102
K13R,A2587G,0.115
P14R,C2590G,0.0666
P14L,C2590T,0.0991
G15R,G2592A,0.224
G15A,G2593C,0.297
M16V,A2595G,0.0684
M16L,A2595T,0.0552
M16I,G2597A,0.640
M16I,G2597T,0.228
D17Y,G2598T,0.0786
D17G,A2599G,0.103
D17E,T2600G,0.0526
G18V,G2602T,0.0804
P19S,C2604T,0.101
K20E,A2607G,0.0275
K20R,A2608G,0.0348
V21D,T2611A,0.0635
V21A,T2611C,0.0657
K22E,A2613G,0.0592
K22I,A2614T,0.0363
Q23L,A2617T,0.0579
W24R,T2619A,0.0554
W24C,G2621T,0.109
P25Q,C2623A,0.0942
L26M,T2625A,0.0281
L26S,T2626C,0.0295
L26F,G2627T,0.226
T27S,A2628T,0.0516
T27R,C2629G,0.0369
E28K,G2631A,0.278
E28D,A2633T,0.0272
K30R,A2638G,0.0684
K30I,A2638T,0.130
K30N,A2639T,0.218
I31V,A2640G,0.0688
I31K,T2641A,0.926
I31M,A2642G,0.0564
K32E,A2643G,0.171
K32I,A2644T,0.0315
K32N,A2645T,0.0486
L34I,T2649A,0.0485
L34S,T2650C,0.0542
V35L,G2652C,0.0642
V35E,T2653A,0.0414
V35A,T2653C,0.0986
E36G,A2656G,0.0599
I37V,A2658G,0.0226
I37N,T2659A,0.0950
I37T,T2659C,0.0675
I37M,T2660G,0.0449
C38R,T2661C,0.0527
T39A,A2664G,0.178
T39I,C2665T,0.137
E40G,A2668G,0.0991
E40D,A2669C,0.0901
E40D,A2669T,0.0282
M41L,A2670C,0.0484
M41V,A2670G,0.0632
M41K,T2671A,0.0202
M41I,G2672T,0.116
E42V,A2674T,0.0243
K43E,A2676G,0.0280
E44K,G2679A,0.864
E44A,A2680C,0.0888
E44D,A2681T,0.0650
K46E,A2685G,0.0520
K46R,A2686G,0.0409
I47V,A2688G,0.0775
I47N,T2689A,0.0523
I47T,T2689C,0.0361
S48P,T2691C,0.0464
S48A,T2691G,0.0964
K49R,A2695G,0.0736
K49I,A2695T,0.0221
I50F,A2697T,0.0997
I50T,T2698C,0.0925
I50M,T2699G,0.155
G51E,G2701A,0.0770
G51V,G2701T,0.117
P52H,C2704A,0.0726
P52L,C2704T,0.0572
E53G,A2707G,0.0697
E53D,A2708C,0.0224
E53D,A2708T,0.0292
N54D,A2709G,0.0342
N54Y,A2709T,0.0144
N54S,A2710G,0.109
N54I,A2710T,0.0209
N54K,T2711A,0.0341
P55T,C2712A,0.228
P55A,C2712G,0.0426
P55S,C2712T,0.325
Y56F,A2716T,0.0435
N57Y,A2718T,0.0499
N57I,A2719T,0.0156
T58I,C2722T,0.0783
P59T,C2724A,0.112
P59L,C2725T,0.247
V60I,G2727A,0.0665
V60A,T2728C,0.0647

10 of these entries, quoted again:

* I31V (base A2640G) -> 0.0688
* L12F (base A2585T) -> 0.102
* P52H (base C2704A) -> 0.0726
* I31M (base A2642G) -> 0.0564
* D17Y (base G2598T) -> 0.0786
* E40G (base A2668G) -> 0.0991
* E28D (base A2633T) -> 0.0272
* M41L (base A2670C) -> 0.0484
* G15A (base G2593C) -> 0.297
* T39I (base C2665T) -> 0.137

Reference: Al-Mawsawi et al. 2014, doi:10.1186/s12977-014-0124-6.